Measured values from several laboratories, pooled; numbers as filed in NIAID ChemDB.

Common to all: tests in culture; species: Herpes simplex virus 2

Rows are shuffled and stem from different studies. Blank or dashed fields: not listed here. Percent inhibition refers to the dose given; in toxicity tests it is the harm to the cells. ECn: concentration that inhibits the pathogen or its effect by n%.

structure | method | dose | cells | read-out | strain or isolate | value
Nc1nc2c(ncn2CCCCO)c(=O)[nH]1 | plaque count |  | BHK | EC50 | 91075 | 13 µM
Nc1nc2c(ncn2CCCC(CO)CO)c(=O)[nH]1 | plaque count |  | VERO | EC50 | 91075 (acyclovir-resistant) | 230 µM
CC(=O)O[C@H]1CC2=CCC3C(CCC4(C)C(C(CCC=C(C)C)COS(=O)(=O)O)CCC34)C2(C)C[C@@H]1OS(=O)(=O)O | plaque count | 20 µg/mL | VERO | inhibition | G | 41%
O=C(O)P(=O)(O)O | plaque count |  | MEF | EC50 | X-79 | 31 µg/mL
Nc1ncnc2c1ncn2[C@@H]1O[C@H](CO)[C@@H](O)[C@@H]1O | plaque count |  | VERO | EC50 | MS-M1 | 18.2 µM
O=c1[nH]c(=O)n([C@@H]2O[C@H](CO)[C@@H](O)[C@@H]2F)cc1I | virus yield | 0.1 µM | VERO | inhibition | G | 60%
CC(C)=CCC[C@@H](COS(=O)(=O)O)C1CCC2C3CC[C@H]4C[C@H](OS(=O)(=O)O)[C@@H](O)CC4(C)C3CCC21C | plaque count | 10 µg/mL | VERO | inhibition | G | 16.6%
Cn1cc(C(=O)NCc2ccc(Cl)cc2)c(=O)c2cc(CN3CCOCC3)ccc21 | plaque count |  | VERO | EC50 |  | 3.4 µM
Nc1nc2c(ncn2COCCO)c(=O)[nH]1 | plaque count |  | HFF | EC50 | X-79 | 0.5 µg/mL
O=c1[nH]c(=O)n([C@H]2C[C@H](O)[C@@H](CO)O2)cc1CCCl | cytopathic effect | 2.1 µg/mL | PRK | inhibition | G | ≥25%
Nc1nc(=O)n([C@@H]2O[C@H](CO)[C@@H](O)[C@@H]2F)cc1I | virus yield | 1 µM | VERO | inhibition | G | 99.64%
CC12CC[C@H](OS(=O)(=O)O)CC1=CCC1C2CCC2(C)C(C(=O)COS(=O)(=O)O)CCC12 | plaque count | 80 µg/mL | VERO | inhibition | G | 34%
O=c1ccn([C@@H]2O[C@H](CO)[C@@H](O)[C@@H]2F)c(=O)[nH]1 | virus yield | 0.1 µM | VERO | inhibition | G | 61%
Nc1nc2c(ncn2CC[C@H](O)CO)c(=O)[nH]1 | plaque count |  | VERO | EC50 | 91075 (acyclovir-resistant) | >250 µM
Cn1cc(C(=O)NCc2ccc(Cl)cc2)c(=O)c2cc(CN3CCOCC3)ccc21 | plaque count |  | HFF | EC50 | SR (WILD TYPE) | 2.6 µM
CC12CCC3C(C[C@H](OS(=O)(=O)O)[C@H]4C[C@@H](OS(=O)(=O)O)CCC34C)C1CCC2C(=O)CO | plaque count | 40 µg/mL | VERO | inhibition | G | 7.6%
Nc1nc2c(ncn2COCCO)c(=O)[nH]1 | cytopathic effect |  | HFF | EC50 | V69730 (acyclovir-susceptible) | 0.5 µg/mL
Cc1cn([C@@H]2O[C@H](CO)[C@H]2CO)c(=O)[nH]c1=O | plaque count |  | HFF | EC50 | 11680 (TK altered) | 47 µg/mL
Cn1cc(C(=O)NCc2ccc(Cl)cc2)c(=O)c2cc(/C=C\CO)cc(F)c21 | plaque count |  | VERO | EC50 | 186 | 2 µM
Nc1nc2c(ncn2CC(CO)CCO)c(=O)[nH]1 | plaque count |  | SIRC | EC50 | 91075 | 2.7 µM
O=C(NCc1ccc(Cl)cc1)c1cn2c3c(cc(CN4CCOCC4)cc3c1=O)OC(c1cccnc1)C2 | plaque count |  | HFF | EC50 | L6089158 ACV resistant | 7.4 µM

The first 2 rows once more:

structure,method,dose,cells,read-out,strain or isolate,value
Nc1nc2c(ncn2CCCCO)c(=O)[nH]1,plaque count,,BHK,EC50,91075,13 µM
Nc1nc2c(ncn2CCCC(CO)CO)c(=O)[nH]1,plaque count,,VERO,EC50,91075 (acyclovir-resistant),230 µM